Pooled drug test results. Numbers come from NIAID ChemDB, via PubChem.

All rows: enzyme or target tests

ICn is the concentration giving n% inhibition.

structure | target | endpoint | organism | dose | value
O=C(Nc1cccc(-c2nc(C(=O)O)c(O)c(=O)[nH]2)c1)NC1CCN(Cc2ccccc2)CC1 | HCV polymerase | IC50 | Hepatitis C virus |  | <100 µM
O=C(O)c1cnn2c(-c3cccc(Oc4ccccc4)c3)c(-c3ccccc3)cnc12 | RNA-dependent RNA polymerase | IC50 | Hepatitis C virus |  | >10 µM
Cc1cc(S(=O)(=O)Nc2ccccc2-c2nc(C(=O)O)c(O)c(=O)[nH]2)c(C)cc1Cl | HCV polymerase | IC50 | Hepatitis C virus |  | <100 µM
O=C(O)c1cc2nc(-c3ccc(OCc4cccc(OC(F)(F)F)c4)cc3)c(C3CCCCC3)c(=O)n2[nH]1 | RNA-dependent RNA polymerase | IC50 | Hepatitis C virus |  | 1–10 µM
O=C(CCCc1ccccc1)Nc1ccsc1-c1nc(C(=O)O)c(O)c(=O)[nH]1 | HCV polymerase | IC50 | Hepatitis C virus |  | <25 µM
CNC(=O)C1CCN(c2nc(Nc3ccc4[nH]ncc4c3)nc(OC)n2)CC1 | DNA polymerase | inhibition | Hepatitis B virus | 0.01 µg/mL | 2%
CCN(CC)c1nc(COc2cc3c(C(=O)NC)c(-c4ccc(F)cc4)oc3cc2N(C)S(C)(=O)=O)ns1 | Nonstructural protein 5B | IC50 | Hepatitis C virus |  | ≤0.5 µM
COc1nc(Nc2ccc3cn[nH]c3c2)nc(-n2ccnc2)n1 | DNA polymerase | IC50 | Hepatitis B virus |  | 0.1–1 µg/mL
O=C(O)c1cnn2c(C3CCCCC3)c(-c3cccc(OCc4cccc(C(F)(F)F)c4)c3)cnc12 | RNA-dependent RNA polymerase | IC50 | Hepatitis C virus |  | >10 µM
CNC(=O)c1c(-c2ccccc2)oc2ccc(OC)cc12 | Nonstructural protein 5B | IC50 | Hepatitis C virus |  | ≤0.5 µM
COC(=O)c1cc2ncc(-c3ccc(OCc4ccccc4)cc3)c(-c3ccccc3)n2n1 | RNA-dependent RNA polymerase | IC50 | Hepatitis C virus |  | >10 µM
CNC(=O)c1c(-c2ccc(F)cc2)oc2cc(N(CCOC)S(C)(=O)=O)c(OC(C)C)cc12 | Nonstructural protein 5B | IC50 | Hepatitis C virus |  | ≤0.5 µM
CN(C(=O)c1ccccc1Cl)c1cc(-c2ccccc2)sc1C(=O)O | NS3 ATPase | IC50 | Hepatitis C virus |  | 5–20 µM
O=C(NCc1ccccc1C(F)(F)F)Nc1cscc1-c1nc(C(=O)O)c(O)c(=O)[nH]1 | HCV polymerase | IC50 | Hepatitis C virus |  | <25 µM
O=C(O)c1sc(-c2ccc([N+](=O)[O-])cc2)cc1NS(=O)(=O)c1ccc(F)cc1F | NS3 ATPase | IC50 | Hepatitis C virus |  | <5 µM
O=C(O)c1ccc2c(c1)nc(-c1ccc3nc(C(c4ccccc4)c4ccccc4)ccc3c1)n2C1CCCCC1 | NS5B polymerase | inhibition | Hepatitis C virus | 33 µM | 98.21%
O=C(NCc1ccc(F)cc1)Nc1ccccc1-c1nc(C(=O)O)c(O)c(=O)[nH]1 | HCV polymerase | IC50 | Hepatitis C virus |  | <100 µM
COc1nc(NCCCN2CCOCC2)nc(Nc2ccc3cn[nH]c3c2)n1 | Nonstructural protein 5B | inhibition | Hepatitis C virus | 1 µg/mL | 53%
O=C(O)c1sc(-c2ccccc2)cc1NS(=O)(=O)c1ccccc1F | NS3 ATPase | IC50 | Hepatitis C virus |  | 5–20 µM
O=C(O)CNc1cc(-c2ccc(Cl)cc2)nc2cc(C(=O)O)nn12 | RNA-dependent RNA polymerase | IC50 | Hepatitis C virus |  | >10 µM
CCOC(=O)c1c(C)oc(-c2ccc(Cl)cc2)c1S(=O)(=O)Nc1cc(-c2ccccc2)sc1C(=O)O | NS3 ATPase | IC50 | Hepatitis C virus |  | 5–20 µM
CON1C(Nc2ccc3cn[nH]c3c2)=NC(NC(C)C)=NC1NC(C)C | DNA polymerase | inhibition | Hepatitis B virus | 0.1 µg/mL | 52%
CC(=O)N(Cc1ccccc1)c1cc(-c2ccccc2)sc1C(=O)O | NS3 ATPase | IC50 | Hepatitis C virus |  | <5 µM
O=C(NC(Cc1ccc(-c2ccccc2)cc1)C(=O)O)c1ccc2c(c1)nc(-c1ccc3nc(-c4ccccc4)cnc3c1)n2C1CCCCC1 | NS5B polymerase | inhibition | Hepatitis C virus | 100 µM | 96.08%
CNC(=O)c1c(-c2ccc(Cl)c(F)c2)oc2ccc(OC)cc12 | Nonstructural protein 5B | IC50 | Hepatitis C virus |  | ≤0.5 µM
C=CCN(C(=O)Cc1ccc(C(F)(F)F)cc1)c1cc(-c2ccccc2)sc1C(=O)O | NS3 ATPase | IC50 | Hepatitis C virus |  | >20 µM
O=C(O)c1ccc2c(c1)nc(-c1ccc3nc(-c4ccnc5ccccc45)ccc3c1)n2C1CCCCC1 | NS5B polymerase | inhibition | Hepatitis C virus | 100 µM | 102%
COCCNc1nc(Nc2ccc3cn[nH]c3c2)nc(OC)n1 | DNA polymerase | inhibition | Hepatitis B virus | 0.1 µg/mL | 37%
CCOC(=O)c1cnn2c(-c3ccccc3Cl)cc(-c3ccc(F)cc3)nc12 | RNA-dependent RNA polymerase | IC50 | Hepatitis C virus |  | >10 µM
O=C(O)c1ccc2c(c1)nc(-c1ccc3nc(-c4ccc(O)cc4O)ccc3c1)n2C1CCCCC1 | NS5B polymerase | inhibition | Hepatitis C virus | 33 µM | 98.6%
Cc1cc(S(=O)(=O)N(Cc2cccc(-c3cc4ccccc4o3)c2)c2cc(-c3ccccc3)sc2C(=O)O)c(C)cc1Cl | NS3 ATPase | IC50 | Hepatitis C virus |  | 5–20 µM
O=C(O)c1ccc2c(c1)nc(-c1ccc3nc(-c4cc(-c5ccc(Cl)c(Cl)c5)no4)ccc3c1)n2C1CCCCC1 | NS5B polymerase | inhibition | Hepatitis C virus | 100 µM | 102%
Cc1cc(Cl)cc(Cl)c1CNC(=O)Nc1ccccc1-c1nc(C(=O)O)c(O)c(=O)[nH]1 | HCV polymerase | IC50 | Hepatitis C virus |  | <100 µM
CN(C(=O)c1ccc2cc(-c3nc4cc(C(=O)O)ccc4n3C3CCCCC3)ccc2n1)c1ccc(Cl)cc1 | NS5B polymerase | inhibition | Hepatitis C virus | 100 µM | 102%
O=C(O)c1cc2nc(-c3ccc(OCc4ccccc4)cc3)c(CC3CCC3)c(=O)n2[nH]1 | RNA-dependent RNA polymerase | IC50 | Hepatitis C virus |  | 1–10 µM
COc1ccc(-c2cccc(C(=O)O)c2)c(-c2ccc3cc(-c4nc5cc(C(=O)O)ccc5n4C4CCCCC4)ccc3n2)c1 | NS5B polymerase | inhibition | Hepatitis C virus | 100 µM | 101%
COc1c(C2CCCCC2)c(-c2ccc(OCc3ccccc3)cc2)nc2c(C(=O)O)cnn12 | RNA-dependent RNA polymerase | IC50 | Hepatitis C virus |  | >10 µM
O=C(O)c1ccc2c(c1)nc(-c1ccc3nc(-c4cc(OCCCN5CCCC5)ccc4-c4ccc(Cl)cc4)ccc3c1)n2C1CCCCC1 | NS5B polymerase | inhibition | Hepatitis C virus | 100 µM | 94.86%
CC(C)=CC1C(C(=O)Nc2ccsc2-c2nc(C(=O)O)c(O)c(=O)[nH]2)C1(C)C | HCV polymerase | IC50 | Hepatitis C virus |  | <25 µM

Percent inhibition refers to the dose given; in toxicity tests it is the harm to the cells. An empty or dashed field is not shown. Conditions beyond the fields shown may differ between rows. a–b is a range or a potency band.